PubChem BioAssay AID1224833 | University of Georgia | 2016

Assay: 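Host factors restraining rotavirus as candidate antiviral genes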 (primary screen)
Cell system: monkey MA104 kidney cells
Knock-down reagent: siRNA pool against human genes, 50 nM
Duration: 48 h knock-down before infection; read 24 h after infection
Conditions: infection with rotavirus strain RV3 two days after transfection; infectious dose for this stage not given
Measurement: 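Rotavirus antigen per well by fluorescent immunoassay, normalised to non-targeting control wells on each plate and given as a standard z-score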
Scale: z-score vs non-targeting control: higher = more rotavirus replication than with non-targeting control
Rule for the call: In these data the active calls have z-score vs non-targeting control at about -1 or lower, or at about 1 or higher
Calls: active = z-score beyond 1 either way; inactive = z-score within 1 of zero
This is an unselected part of about 12,000 deposited reagents. About 5,600 of them (46%) count as active. 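Active calls cover z-scores past 1 in both directions, so they include lowered as well as raised rotavirus replication.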 No sequences are given here.

{"Gene": "AP2S1", "z-score vs non-targeting control": -1.97, "call": "active"}
{"Gene": "MB", "z-score vs non-targeting control": -0.346, "call": "inactive"}
{"Gene": "LUZP4", "z-score vs non-targeting control": 0.569, "call": "inactive"}
{"Gene": "NHSL2", "z-score vs non-targeting control": 0.477, "call": "inactive"}
{"Gene": "HOXC12", "z-score vs non-targeting control": -0.67, "call": "inactive"}
{"Gene": "OR1J1", "z-score vs non-targeting control": 0.246, "call": "inactive"}
{"Gene": "OR2G2", "z-score vs non-targeting control": -2.29, "call": "active"}
{"Gene": "CRYGN", "z-score vs non-targeting control": -1.8, "call": "active"}
{"Gene": "MAGEH1", "z-score vs non-targeting control": -0.671, "call": "inactive"}
{"Gene": "MOGS", "z-score vs non-targeting control": 0.684, "call": "inactive"}
{"Gene": "CCDC59", "z-score vs non-targeting control": -0.0001, "call": "inactive"}
{"Gene": "TFE3", "z-score vs non-targeting control": -0.686, "call": "inactive"}
{"Gene": "OFD1", "z-score vs non-targeting control": -0.656, "call": "inactive"}
{"Gene": "PGM3", "z-score vs non-targeting control": 0.751, "call": "inactive"}
{"Gene": "FAM184A", "z-score vs non-targeting control": 0.465, "call": "inactive"}
{"Gene": "GFRA4", "z-score vs non-targeting control": 1.73, "call": "active"}
{"Gene": "SPC24", "z-score vs non-targeting control": 0.391, "call": "inactive"}
{"Gene": "MED23", "z-score vs non-targeting control": -0.759, "call": "inactive"}
{"Gene": "USP22", "z-score vs non-targeting control": -0.816, "call": "inactive"}
{"Gene": "TLR3", "z-score vs non-targeting control": -0.54, "call": "inactive"}
{"Gene": "DTWD1", "z-score vs non-targeting control": 2.18, "call": "active"}
{"Gene": "ZNF213", "z-score vs non-targeting control": -1.31, "call": "active"}
{"Gene": "VCX", "z-score vs non-targeting control": -1.2, "call": "active"}
{"Gene": "LUZP1", "z-score vs non-targeting control": -2.6, "call": "active"}
{"Gene": "RBM22", "z-score vs non-targeting control": -0.911, "call": "inactive"}
{"Gene": "EPG5", "z-score vs non-targeting control": 0.513, "call": "inactive"}
{"Gene": "NDUFA1", "z-score vs non-targeting control": -1.21, "call": "active"}
{"Gene": "S100A5", "z-score vs non-targeting control": 0.0967, "call": "inactive"}
{"Gene": "HES7", "z-score vs non-targeting control": -1.12, "call": "active"}
{"Gene": "POP1", "z-score vs non-targeting control": -0.816, "call": "inactive"}
{"Gene": "ZC3H12A", "z-score vs non-targeting control": 1.31, "call": "active"}
{"Gene": "DMBT1", "z-score vs non-targeting control": -1.96, "call": "active"}
{"Gene": "TMC7", "z-score vs non-targeting control": -0.442, "call": "inactive"}
{"Gene": "CIAO2B", "z-score vs non-targeting control": 0.682, "call": "inactive"}
{"Gene": "CISD1", "z-score vs non-targeting control": 0.74, "call": "inactive"}
{"Gene": "CMC1", "z-score vs non-targeting control": 0.628, "call": "inactive"}
{"Gene": "ZNF782", "z-score vs non-targeting control": -2.12, "call": "active"}
{"Gene": "KATNBL1", "z-score vs non-targeting control": -1.85, "call": "active"}
{"Gene": "TMEM109", "z-score vs non-targeting control": 0.959, "call": "inactive"}
{"Gene": "KNTC1", "z-score vs non-targeting control": -1.21, "call": "active"}
{"Gene": "RGS2", "z-score vs non-targeting control": 0.313, "call": "inactive"}
{"Gene": "KLF6", "z-score vs non-targeting control": 1.13, "call": "active"}
{"Gene": "WIF1", "z-score vs non-targeting control": 0.635, "call": "inactive"}
{"Gene": "TOB2", "z-score vs non-targeting control": 0.889, "call": "inactive"}
{"Gene": "AP1G2", "z-score vs non-targeting control": -1.41, "call": "active"}
{"Gene": "TCF20", "z-score vs non-targeting control": -0.673, "call": "inactive"}
{"Gene": "ZNF430", "z-score vs non-targeting control": 0.0774, "call": "inactive"}

7 entries from above, set out differently:
Gene | z-score vs non-targeting control | call
CCDC59 | -0.0001 | inactive
TFE3 | -0.686 | inactive
OFD1 | -0.656 | inactive
PGM3 | 0.751 | inactive
FAM184A | 0.465 | inactive
GFRA4 | 1.73 | active
SPC24 | 0.391 | inactive
